Experimental data as given in paper PMC7343802, “The development of the dog heartworm is highly sensitive to sterols which activate the orthologue of the nuclear receptor DAF-12” (Scientific Reports, 2020).

Experiments:
[1] = system: DimDAF-12 T637V/R678V; assay: cell-based transactivation assay, double mutant T637V/R678V; conditions: 0.01 or 0.1 µM
[2] = system: DimDAF-12_R640C; assay: cell-based transactivation assay, mutant R640C
[3] = system: DimDAF-12_Q713L; assay: cell-based transactivation assay, mutant Q713L; conditions: 0.01 or 0.1 µM
[4] = system: DimDAF-12_Q713E; assay: cell-based transactivation assay, mutant Q713E; conditions: 0.01 or 0.1 µM
[5] = system: DimDAF-12 T637V/R674K/R678V; assay: cell-based transactivation assay, triple mutant T637V/R674K/R678V; conditions: 0.01 or 0.1 µM
[6] = system: DimDAF-12_R674K; assay: cell-based transactivation assay, mutant R674K

SMILES	DA-dependent luciferase activity of mutant versus wild-type [1]	DA-dependent luciferase activity of mutant versus wild-type ([2]; 0.01 µM)	DA-dependent luciferase activity of mutant versus wild-type ([2]; 0.1 µM)	DA-dependent luciferase activity of mutant versus wild-type [3]	DA-dependent luciferase activity of mutant versus wild-type [4]	DA-dependent luciferase activity of mutant versus wild-type [5]	DA-dependent luciferase activity of mutant versus wild-type ([6]; 0.01 µM)	DA-dependent luciferase activity of mutant versus wild-type ([6]; 0.01 or 0.1 µM)
CC(CCCC(C)C1CCC2C3CCC4=CC(=O)CCC4(C)C3CCC12C)C(=O)O (stereo not drawn)	conserved	significant decrease	increase	compromised the activity	compromised the activity	completely abolished	significantly decreased	–
CC(CCCC(C)C1CCC2C3=CCC4CC(=O)CCC4(C)C3CCC21C)C(=O)O [Δ7-DA, (25S)-Δ7-dafachronic acid]	significantly increased	significant increase	–	increasing	–	significantly increased	–	did not affect
